Pooled drug test results. Numbers come from NIAID ChemDB, via PubChem.

Shared fields: whole-cell or culture tests; species: HIV-1; cell line: C8166; endpoint: EC50

Blank or dashed fields: not listed here.

SMILES,strain,mutations,read by,value
Cc1cn([C@H]2C[C@H](N=[N+]=[N-])[C@@H](COP(=O)(OCC(F)(F)F)OCC(F)(F)F)O2)c(=O)[nH]c1=O,RF,-,antigen,0.4 µM
Cc1cn([C@H]2C[C@H](N=[N+]=[N-])[C@@H](CO)O2)c(=O)nc1NN(C)C,IIIB,-,MTT / ELISA,0.064 µM
C=C(C)[C@@]1(OC(=O)c2ccccc2)[C@H](OC(C)=O)[C@@H]2[C@H](OC(C)=O)[C@@]3(C)O[C@@]4([C@@H]3OC(C)=O)[C@@H](OC(=O)c3ccccc3)[C@@H](C)C[C@H]4[C@@]2(O)[C@H](C)[C@@H]1OC(C)=O,IIIB,-,syncytia / visual reading,0.184 µM
C=C(C)C1Oc2ccc(C(C)=O)cc2C1OC(C)=O,-,-,p24 / syncytia,>50 µg/mL
CC(C)(C)NC(=O)[C@@H]1C[C@@H]2CCCC[C@@H]2CN1C[C@H](O)CNC(=O)[C@@H]1N[C@@H]([C@H](NC(=O)Cc2ccccc2)C(N)=O)SC1(C)C,RF,-,syncytia,0.12 µM
CC(C)(C)NC(=O)[C@@H]1C[C@@H]2CCCC[C@@H]2CN1C[C@@H](O)[C@H](Cc1ccccc1)NC(=O)[C@H](CC(N)=O)NC(=O)c1ccc2ccccc2n1,IIIB,-,cytopathic effect,0.0016 µM
CCCC1C(=O)OCC1CCC(C)=O,LAI,-,p24 / ELISA / antigen,36.74 µg/mL
Cc1cn([C@H]2C[C@H](N=[N+]=[N-])[C@@H](CO)O2)c(=O)[nH]c1=O,IIIB,-,syncytia,<0.268 µg/mL
Cc1cn([C@H]2C[C@H](N=[N+]=[N-])[C@@H](CO)O2)c(=O)[nH]c1=O,IIIB,-,syncytia,<0.2 µg/mL
CCCCCCCCCCCCCCCCCCCCCCC(=O)O[C@@H]1[C@@H](C)[C@@]2(O)[C@@H](C=C(COC(C)=O)C[C@]3(O)C(=O)C(C)=C[C@@H]23)[C@@H]2C(C)(C)[C@]12O,NL4-3,Vif-deficient,p24 / ELISA,7.987 µM
Cc1cn(-c2ccc([N+](=O)[O-])cc2)c2ccccc12,IIIB,-,syncytia,19.22 µg/mL
Cc1occc1C(=S)Nc1ccc(Cl)c(/C=N/OC(C)(C)C)c1,IIIB,-,cytopathic effect,0.019 µg/mL
Cc1cn([C@H]2C[C@H](N=[N+]=[N-])[C@@H](CO)O2)c(=O)[nH]c1=O,IIIB,-,cytopathic effect / syncytia,0.0032 µg/mL
CO[C@H]1/C=C/O[C@@]2(C)Oc3c(C)c(O)c4c(c3C2=O)C(=O)C(SCCOC(=O)CCCC(=O)OC[C@@H]2O[C@H](n3cc(C)c(=O)[nH]c3=O)C[C@H]2N=[N+]=[N-])=C(NC(=O)/C(C)=C\C=C\[C@H](C)[C@@H]2OC(C)(C)O[C@@H]([C@@H](C)[C@H](OC(C)=O)[C@@H]1C)[C@@H]2C)C4=O,IIIB,-,p24,0.04 µM
Cc1ccnc2c1NC(=O)c1cccnc1N2C1CC1,Clinical isolate,74V,ELISA,0.039 µM
CC(C)(C)NC(=O)[C@@H]1C[C@@H]2CCCC[C@@H]2CN1C[C@@H](O)[C@H](Cc1ccccc1)NC(=O)[C@H](CC(N)=O)NC(=O)c1ccc2ccccc2n1,RF,-,p24,<0.001 µg/mL
O=c1[nH]cnc2c1ncn2[C@H]1CC[C@@H](CO)O1,RF,-,RT activity,0.62 µM
OC[C@H]1O[C@@H](Oc2cc(O)c3c(c2)O[C@H](c2ccc(O)c(O)c2)[C@@H](O)C3)[C@H](O)[C@@H](O)[C@@H]1O,IIIB,-,syncytia,47.86 µg/mL
Cc1cn([C@H]2C[C@H](N=[N+]=[N-])[C@@H](CO)O2)c(=O)[nH]c1=O,IIIB X4,-,syncytia,1.9 µM
Cc1cn([C@H]2C[C@H](N=[N+]=[N-])[C@@H](CO)O2)c(=O)[nH]c1=O,IIIB,-,syncytia,0.007 µg/mL
CCN1c2cc(C)c(C)cc2N(C)S(=O)(=O)c2cccnc21,MN,-,cytopathic effect,0.06 µM
O=c1c(O)c(-c2ccc(O)cc2)oc2cc(O)cc(O)c12,MN,-,ELISA,4 µg/mL
CCOC(=O)c1cn(C)cc1S(=O)(=O)c1cc(Cl)ccc1N,Clinical isolate,RT-K103N,cytopathic effect / MTT,≥30 µM
C=C(C)[C@@]1(O)[C@H](OC(C)=O)[C@@H]2[C@H](OC(C)=O)[C@@]3(C)O[C@@]4([C@@H]3OC(=O)c3ccccc3)[C@@H](O)[C@@H](C)C[C@H]4[C@@]2(O)[C@H](C)[C@@H]1OC(=O)c1ccccc1,IIIB,-,cytopathic effect / syncytia,71.05 µg/mL
CC(C)(O)C(=O)Cc1cc2ccc(=O)oc2cc1O,-,-,MTT / syncytia,5.62 µM
C/C=C/C1=C(/C=C/C(C)O)COC1=O,LAI,-,p24 / ELISA / antigen,24.32 µg/mL
C=C(C)[C@@]1(O)[C@H](O)[C@@H]2[C@H](OC(C)=O)[C@@]3(C)O[C@@]4([C@@H]3OC(=O)c3ccccc3)[C@@H](OC(C)=O)[C@@H](C)C[C@H]4[C@@]2(O)[C@H](C)[C@@H]1OC(=O)c1ccccc1,IIIB,-,cytopathic effect / syncytia,62.49 µg/mL
Oc1cc(O)c2c(c1)O[C@@H](c1ccc(O)c(O)c1)[C@@H](O)C2,-,-,-,4 µg/mL
C=C(C)[C@@]1(OC(C)=O)[C@H](OC(C)=O)[C@@H]2[C@H](OC(C)=O)[C@@]3(C)O[C@@]4([C@@H]3O)[C@@H](OC(=O)c3ccccc3)[C@@H](C)C[C@H]4[C@@]2(O)[C@H](C)[C@@H]1OC(=O)c1ccccc1,IIIB,-,syncytia / visual reading,0.215 µM
CC1(C)Oc2cc3oc(=O)ccc3cc2[C@@H](O)[C@@H]1O,-,-,MTT / syncytia,2.46 µM
COc1ccc(Cc2nccc3cc(OC)c(OC)cc23)cc1OC,RF,-,p24,>5 µg/mL
Oc1cc(O)c2c(c1)O[C@H](c1cc(O)c(O)c(O)c1)[C@@H](O)C2,-,-,-,5 µg/mL
Cc1cn([C@H]2C[C@H](N=[N+]=[N-])[C@@H](CO)O2)c(=O)nc1NNc1ccccc1,IIIB,-,MTT / ELISA,0.0025 µM
Cc1cn([C@H]2C[C@H](N=[N+]=[N-])[C@@H](CO)O2)c(=O)[nH]c1=O,-,-,MTT / syncytia,0.01987 µM
O=[N+]([O-])c1ccc(-n2ccc3ccccc32)cc1,IIIB,-,syncytia,35.82 µg/mL
CO[C@H]1/C=C/O[C@@]2(C)Oc3c(C)c(O)c4c(c3C2=O)C(=O)C(SCCCCCCCOC(=O)CCCC(=O)OC[C@H]2O[C@@H](n3cc(C)c(=O)[nH]c3=O)C[C@@H]2N=[N+]=[N-])=C(NC(=O)/C(C)=C\C=C\[C@H](C)[C@H](O)[C@@H](C)[C@@H](O)[C@@H](C)[C@H](OC(C)=O)[C@@H]1C)C4=O,IIIB,-,p24,0.04 µM
Cc1cn([C@H]2C[C@H](N=[N+]=[N-])[C@@H](CO)O2)c(=O)[nH]c1=O,IIIB,-,cytopathic effect,0.06 µM
COc1cc([C@H]2c3cc(O)c(OC)cc3C[C@@H](CO)[C@@H]2COS(=O)(=O)[O-])ccc1O.[Na+],IIIB,-,syncytia,74.9 µg/mL
CCN1c2ncccc2N(C)C(=S)c2sc3cccnc3c21,IIIB,-,cytopathic effect,0.0025 µM
CC(C)(C)NC(=O)[C@@H]1C[C@@H]2CCCC[C@@H]2CN1CC(O)CNC(=O)[C@@H]1N[C@@H]([C@H](NC(=O)Cc2ccccc2)C(=O)NCCNC(=O)OC(C)(C)C)SC1(C)C,RF,-,syncytia,0.1 µM
Cc1ccnc2c1NC(=O)c1cccnc1N2C1CC1,NL4-3,E138K,antigen,0.176 µM
COc1cc2c(c(OC)c1OC)-c1c(cc(OC(C)=O)c(OC)c1OC)C[C@H](C)[C@H](C)[C@H]2OC,-,-,MTT,1.82 µg/mL
C[C@@H]1O[C@@H](Oc2c(-c3ccc(O)c(O)c3)oc3cc(O)cc(O)c3c2=O)[C@H](O)[C@H](O)[C@H]1O,-,-,-,50 µg/mL
O=C(O)C1=CC(=C(c2ccc(O)c(C(=O)O)c2)c2ccc(O)c(C(=O)O)c2)C=CC1=O,RF,-,p24,7 µg/mL
Cc1cccc(C)c1OCC(=O)N[C@@H](Cc1ccccc1)[C@H](O)CN1CC[C@@H](Sc2ccncc2)C[C@H]1C(=O)NC(C)(C)C,BILA2185-resistant (PR I84V),PR-I84V,p24,0.011 µM
C=C(C)[C@@]12OC3(c4ccccc4)O[C@@H]1[C@@H]1[C@H](O)[C@](O)(CO)[C@@H](O)[C@]4(O)C(=O)[C@@H](C)C=C4[C@@]1(O3)[C@H](C)[C@H]2OC(=O)c1ccccc1,IIIB,-,syncytia / visual reading,3.58 µM
CO[C@H]1/C=C/O[C@@]2(C)Oc3c(C)c(O)c4c(c3C2=O)C(=O)C(SCCOC(=O)CCC(=O)OC[C@H]2O[C@@H](n3cc(C)c(=O)[nH]c3=O)C[C@@H]2N=[N+]=[N-])=C(NC(=O)/C(C)=C\C=C\[C@H](C)[C@@H]2OC(C)(C)O[C@@H]([C@@H](C)[C@H](OC(C)=O)[C@@H]1C)[C@@H]2C)C4=O,IIIB,-,p24,0.04 µM
CN(C)c1ccc(CNC(=O)[C@@H](NC(=O)Cc2ccccc2)[C@@H]2N[C@@H](C(=O)NC[C@@H](O)CN3C[C@H]4CCCC[C@H]4C[C@H]3C(=O)NC(C)(C)C)C(C)(C)S2)cc1,RF,-,syncytia,0.27 µM
O=C(Oc1cc(O)c2c(c1)O[C@H](c1ccc(O)c(O)c1)[C@@H](O)C2)c1cc(O)c(O)c(O)c1,-,-,-,10 µg/mL
CC1CNC(=O)c2ccccc2SSc2ccccc2C(=O)N1,MN,-,ELISA,0.05 µg/mL
COc1cc(OC)c2c(c1)C(=O)OC2,IIIB,-,syncytia,19.97 µg/mL
Cc1cn([C@H]2C[C@H](N=[N+]=[N-])[C@@H](CO)O2)c(=O)[nH]c1=O,BILA1906-resistant (PR V32I A71V),-,p24,0.006 µM
CSC[C@H](NC(=O)c1ccc2ccccc2n1)C(=O)N[C@@H](Cc1ccccc1)[C@H](O)CN1CCCC[C@H]1C(=O)NC(C)(C)C,RF,-,p24,0.013 µM
O=S(=O)(O)c1cc(N=C=S)ccc1/C=C/c1ccc(N=C=S)cc1S(=O)(=O)O,RF,-,p24,<100 µg/mL
CC(C)[C@H](NC(=O)c1ccc2ccccc2n1)C(=O)N[C@@H](Cc1ccccc1)[C@H](O)CN1CC[C@@H](OCc2ccncc2)C[C@H]1C(=O)NC(C)(C)C,IIIB,-,p24,0.005 µM
C=C(C)[C@@]12OC3(/C=C/C=C/CCCCC)O[C@@H]1[C@@H]1[C@@H]4O[C@]4(CO)[C@@H](O)[C@]4(O)C(=O)C(C)=C[C@H]4[C@@]1(O3)[C@H](C)[C@H]2OC(=O)CC,IIIB,-,syncytia / visual reading,8.62 µM
Cc1cn([C@H]2C[C@H](N=[N+]=[N-])[C@@H](CO)O2)c(=O)nc1N(C)C,IIIB,-,MTT / ELISA,1.6 µM
CN[C@@H]1[C@H](O[C@@H]2OC[C@@H](O)[C@H](O)[C@H]2O)[C@@H](O)[C@H](O[C@H]2c3cc(C)c(C(=O)N[C@H](C)C(=O)O)c(O)c3-c3c(cc4c(c3O)C(=O)c3cc(OC)cc(O)c3C4=O)[C@@H]2O)O[C@@H]1C,-,-,syncytia,4 µg/mL
COc1cc(O[C@@H]2O[C@H](CO)[C@@H](O)[C@H](O)[C@H]2O)ccc1O,IIIB,-,syncytia,>200 µg/mL
Cc1ccnc2c1NC(=O)c1cccnc1N2C1CC1,IIIB,-,cytopathic effect,0.032 µg/mL
O=c1c(O)c(-c2ccc(O)cc2)oc2cc(OC3OC(CO)C(O)C(O)C3O)cc(O)c12,MN,-,ELISA,>250 µg/mL
C=C(C)[C@@H]1Cc2cc3ccc(=O)oc3cc2O1,-,-,MTT / syncytia,4.33 µM
CC(C)=CCn1cc2c(c1)S(=O)(=O)c1cc(Cl)ccc1NC2=S,Clinical isolate,RT-K103N,cytopathic effect / MTT,≥30 µM
O=c1c(O)c(-c2ccc(O)c(O)c2)oc2cc(O)cc(O)c12,MN,-,ELISA,20 µg/mL
Cc1cn([C@H]2C[C@H](N=[N+]=[N-])[C@@H](CO)O2)c(=O)[nH]c1=O,IIIB,-,syncytia,0.13 µg/mL
CC(C)Nc1cccnc1N1CCN(C(=O)c2cc3cc(NS(C)(=O)=O)ccc3[nH]2)CC1,IIIB,-,cytopathic effect,0.012 µg/mL
COC(=O)[C@H](C)NP(=O)(OC[C@@H]1CC[C@H](n2cnc3c(N)ncnc32)O1)Oc1ccccc1,IIIB,-,syncytia,0.04 µM
CC(C)=CCN1Cc2cc(Cl)cc3[nH]c(=S)n(c23)C[C@@H]1C,IIIB,-,cytopathic effect,0.031 µg/mL
CC(C)(C)OC(=O)[C@@H]1CCCN1C[C@@H](O)[C@H](Cc1ccccc1)NC(=O)[C@H](CC(N)=O)NC(=O)c1ccc2ccccc2n1,RF,-,p24,0.11 µM
CC(C)(C)OC(=O)[C@@H]1CCCN1C[C@H](O)[C@H](Cc1ccccc1)NC(=O)[C@H](CC(N)=O)NC(=O)OCc1ccccc1,RF,-,p24,10 µg/mL

For reference, 7 entries again:

| SMILES | strain | mutations | read by | value |
|---|---|---|---|---|
| CC(C)(C)NC(=O)[C@@H]1C[C@@H]2CCCC[C@@H]2CN1C[C@@H](O)[C@H](Cc1ccccc1)NC(=O)[C@H](CC(N)=O)NC(=O)c1ccc2ccccc2n1 | RF | - | p24 | <0.001 µg/mL |
| CN[C@@H]1[C@H](O[C@@H]2OC[C@@H](O)[C@H](O)[C@H]2O)[C@@H](O)[C@H](O[C@H]2c3cc(C)c(C(=O)N[C@H](C)C(=O)O)c(O)c3-c3c(cc4c(c3O)C(=O)c3cc(OC)cc(O)c3C4=O)[C@@H]2O)O[C@@H]1C | - | - | syncytia | 4 µg/mL |
| Cc1cn([C@H]2C[C@H](N=[N+]=[N-])[C@@H](CO)O2)c(=O)[nH]c1=O | IIIB | - | syncytia | <0.268 µg/mL |
| CC(C)(C)OC(=O)[C@@H]1CCCN1C[C@@H](O)[C@H](Cc1ccccc1)NC(=O)[C@H](CC(N)=O)NC(=O)c1ccc2ccccc2n1 | RF | - | p24 | 0.11 µM |
| CCCC1C(=O)OCC1CCC(C)=O | LAI | - | p24 / ELISA / antigen | 36.74 µg/mL |
| CC1CNC(=O)c2ccccc2SSc2ccccc2C(=O)N1 | MN | - | ELISA | 0.05 µg/mL |
| CC(C)(C)NC(=O)[C@@H]1C[C@@H]2CCCC[C@@H]2CN1C[C@@H](O)[C@H](Cc1ccccc1)NC(=O)[C@H](CC(N)=O)NC(=O)c1ccc2ccccc2n1 | IIIB | - | cytopathic effect | 0.0016 µM |

ECn: concentration that inhibits the pathogen or its effect by n%. Rows are shuffled and stem from different studies.